A mixed list of measured activities; the numbers were collected in NIAID ChemDB.

Common to all: growth or infection tests; organism: HIV-1; cell line: TZM-bl; measure: EC50

ECn is the concentration giving n% inhibition of infection, replication or growth. Rows are shuffled and stem from different studies.

C(=Nc1ccccc1)c1cc2ccccc2nc1Nc1ccccc1 ; strain: UG070 ; read by: luminescence ; result: >100 µM
CC(C)=CCOc1cc(NC(=S)c2ccoc2C)ccc1Cl ; strain: NL4-3 ; mutations: (36G)V38A N42D ; read by: luminescence ; result: >2000 µM
Cc1nnc(C(C)C)n1C1C[C@H]2CC[C@@H](C1)N2CC[C@H](NC(=O)C1CCC(F)(F)CC1)c1ccccc1 ; strain: SF162 ; read by: luciferase ; result: 0.00299 µM
CCOC(=O)C(O)(c1cn(C)c2ccccc12)C(F)(F)F ; strain: IIIB ; result: 0.309 µM
Cc1ccnc2c1NC(=O)c1cccnc1N2C1CC1 ; strain: LAI ; result: 0.07 µM
Clc1cc(/C=C/c2cccs2)nc2ccccc12 ; strain: UG070 ; read by: luminescence ; result: 57.4 µM
O=C1CCCN1CCCN1CC(=O)N2CC(N(CCOc3ccccc3)S(=O)(=O)c3cccc(F)c3)C[C@H]2C1=O ; strain: PLAI-JRFL PID2-26B ; read by: luciferase ; result: 2.22 µM
COc1cccc(-c2nnc(-c3ccc4cccc(OC)c4n3)o2)c1 ; strain: VB59 ; read by: luminescence ; result: >900 µM
[Cl][Zn][Cl].c1cc2nc(c1)CNCCNCCNCCNC2 ; strain: NL4-3 ; read by: luminescence ; result: 18.6 µM
CC1=C\[C@@H](C)[C@@H](CC(C)C)OC(=O)/C(C)=C/C=C/C=C/CCC[C@@H](O)CC(=O)[C@H](C)[C@@H](O)CC[C@@H](C)C(=O)\C=C\1 ; strain: LAI ; result: 0.07 µM
Cc1ccc(-c2ccc3c(c2)C=C(C(=O)Nc2ccc(C[N+](C)(C)C4CCOCC4)cc2)CCC3)cc1 ; strain: VB59 ; read by: entry / luminescence ; result: 3.63 µM
C(=C1/CNC/C(=C\c2ccco2)C1=NNc1ccccc1)/c1ccco1 ; strain: HXB2 ; read by: luciferase / single cycle ; result: 1.47 µM
COC(=O)C(O)(c1c[nH]c2ccc([N+](=O)[O-])cc12)C(F)(F)F ; strain: IIIB ; result: 19.6 µM
CC1=CC2=C(C(C)C)C(O)C(=O)/C(=C\NC(C)(C)C(=O)O)C2C(O)=C1c1c(C)cc2c(C(C)C)c(O)c(O)c(C=NC(C)(C)C(=O)O)c2c1O.[Na+].[Na+] ; strain: IIIB ; read by: p24 / ELISA / antigen ; result: 0.85 µM
OCCc1ccc(O)c(O)c1 ; strain: BaL ; read by: luciferase ; result: 53.9 µM
Cc1cn([C@H]2C[C@H](N=[N+]=[N-])[C@@H](CO)O2)c(=O)[nH]c1=O ; strain: N119 ; read by: luciferase ; result: 0.02 µM
COC(=O)C(O)(c1c[nH]c2ccc(C#N)cc12)C(F)(F)F ; strain: IIIB ; result: 92.5 µM
CC1=C\[C@@H](C)[C@@H](CC(C)C)OC(=O)/C=C/C=C/C=C/CCCCC[C@@H](OS(=O)(=O)O)[C@H](O)[C@]2(O)O[C@@H](C[C@H](O)[C@H]2C)[C@@H](C)C(=O)\C=C\1 ; strain: LAI ; result: 0.41 µM
N#Cc1cn(C[C@H](CF)OCP(=O)(O)O)c2nc(N)[nH]c(=O)c12 ; strain: BaL ; read by: luciferase ; result: >100 µM
COc1cc(NC(=O)c2ccc3ccc(C(C)=O)c(O)c3n2)cc(O)c1O ; read by: luminescence ; result: 6.5 µM
CC1=CC2=C(C(C)C)C(O)C(=O)/C(=C\N[C@@H](C(=O)O)C(C)C)C2C(O)=C1c1c(C)cc2c(C(C)C)c(O)c(O)c(C=N[C@H](C(=O)O)C(C)C)c2c1O.[Na+].[Na+] ; strain: IIIB ; read by: p24 / ELISA / antigen ; result: 0.68 µM
Cc1cn([C@H]2C[C@H](N=[N+]=[N-])[C@@H](CO)O2)c(=O)[nH]c1=O ; strain: 92UG024 ; read by: luciferase / luminescence ; result: 0.00818 µM
CCCCCOC(=O)C[C@H](NP(=O)(CO[C@@H](CF)Cn1ccc2c(=O)[nH]c(N)nc21)N[C@@H](CC(=O)OCCCCC)C(=O)OCCCCC)C(=O)OCCCCC ; strain: NL4-3 ; read by: luminescence ; result: >4 µM
[Cl][Zn][Cl].c1cc2c3nc1CNCCNCCNCCNC3CCC2 ; strain: NL4-3 ; read by: luminescence ; result: 1.1 µM
COc1cc(O)cc2cc3c(c(O)c12)C(=O)CC(C)(O)O3 ; strain: SF162 ; read by: XTT / absorbance ; result: >50 µM
Nc1nc2c(ccn2C[C@@H](CF)OCP(=O)(O)O)c(=O)[nH]1 ; strain: BaL ; read by: luciferase ; result: >100 µM
Nc1nc(=O)n([C@@H]2CS[C@H](CO)O2)cc1F ; strain: LAI ; mutations: E138K ; result: 2.5 µM
OC1/C(=C/c2ccco2)CNC/C1=C\c1ccco1 ; strain: HXB2 ; read by: luciferase / single cycle ; result: >156 µM
CC[C@@H](C)[C@@H](N/C=C1\C(=O)C(O)C(C(C)C)=C2C=C(C)C(c3c(C)cc4c(C(C)C)c(O)c(O)c(C=N[C@H](C(=O)O)[C@@H](C)CC)c4c3O)=C(O)C21)C(=O)O.[Na+].[Na+] ; strain: IIIB ; read by: p24 / ELISA / antigen ; result: 0.51 µM
Cc1cn([C@H]2C[C@H](N=[N+]=[N-])[C@@H](CO)O2)c(=O)[nH]c1=O ; strain: VB59 ; read by: luminescence ; result: 0.03 µM
Cc1ccnc2c1NC(=O)c1cccnc1N2C1CC1 ; strain: N119 ; read by: luciferase ; result: 0.22 µg/mL
CC(C)OC(=O)[C@H](C)N[P@](=O)(CO[C@H](C)Cn1cnc2c(N)ncnc21)Oc1ccccc1 ; strain: NL4-3 ; read by: luciferase ; result: 0.003 µM
[Cl][Fe]([Cl])[Cl].c1c2c3nc4c1CCC[C@@H]4NCCNCCNCCN[C@H]3CCC2 ; strain: NL4-3 ; read by: luminescence ; result: 0.2 µM
COC[C@@H](c1ccc(C(F)(F)F)cc1)N1CCN(C2(C)CCN(C(=O)c3c(C)ncnc3C)CC2)C[C@@H]1C ; mutations: G516V M518V F519I ; read by: luciferase ; result: 0.0011 µM
Nc1nc2c(c(F)cn2C[C@H](CF)OCP(=O)(O)O)c(=O)[nH]1 ; strain: NL4-3 ; read by: luciferase ; result: >100 µM
C#C[C@@]1(CO)C=C[C@H](n2cc(C)c(=O)[nH]c2=O)O1 ; strain: NL4-3 ; read by: luciferase / reporter gene ; result: 0.01656 µM
C[C@H](Cn1cnc2c(N)ncnc21)OCP(=O)(O)O ; strain: 89.6 ; mutations: X4/R5 ; read by: luciferase ; result: 6.8 µM
C(=C1/CNC/C(=C\c2ccco2)C1=Nc1ccccc1)/c1ccco1 ; strain: HXB2 ; read by: luciferase / single cycle ; result: >121 µM
Cc1cc(/C=C/C#N)cc(C)c1Nc1ccnc(Nc2ccc(C#N)cc2)n1 ; strain: LAI ; mutations: E138G ; result: 0.0007 µM
[Cl][Mn][Cl].c1cc2nc(c1)CNCCNCCNCCNC2 ; strain: NL4-3 ; read by: luminescence ; result: 17.2 µM
Clc1cc(/C=C/c2ccc(-c3ccccc3)cc2)nc2ccccc12 ; strain: UG070 ; read by: luminescence ; result: 85.42 µM
COc1cc(OC)c2c(O)c3c(=O)cc(C)oc3cc2c1 ; strain: SF162 ; read by: XTT / absorbance ; result: >50 µM
Cc1cc2nc(c1)CNCCNCCNCCNC2.[Cl][Mn][Cl] ; strain: NL4-3 ; read by: luminescence ; result: 3 µM
Clc1cc(/C=C/c2ccco2)nc2ccccc12 ; strain: UG070 ; read by: luminescence ; result: 80.96 µM
CC1(C)CC(NC(=O)C(=O)Nc2ccc(Cl)cc2)CC(C)(C)N1 ; strain: HXB2 ; read by: luciferase / single cycle ; result: 2.1 µM
CC(C)OC(=O)OCOP(=O)(CO[C@H](C)Cn1cnc2c(N)ncnc21)OCOC(=O)OC(C)C ; strain: BaL ; read by: luciferase ; result: 0.02 µM
COc1cccc2ccc(-c3nnc(-c4ccncc4)o3)nc12 ; strain: VB59 ; read by: luminescence ; result: 125 µM
COc1cc(C(=O)Sc2ccccc2C(=O)NCCC(N)=O)cc(OC)c1OC ; strain: IIIB ; read by: luminescence ; result: 2.2 µM
COc1cc(/C=C/c2ccc3ccc(C(C)=O)c(O)c3n2)cc(O)c1O ; read by: luminescence ; result: 0.7 µM
Cc1ccc(S(=O)(=O)n2cc(C(=O)/C=C3\OC(C)(C)OC3=O)c3cc(Br)ccc32)cc1 ; read by: luciferase ; result: 0.15 µM
COc1cc(OC)nc(N2C(=O)CSC2c2c(Cl)cccc2Cl)n1 ; strain: N119 ; read by: luciferase ; result: 1.17 µg/mL
CC1=CC2=C(C(C)C)C(O)C(=O)/C(=C\N[C@H](C)C(=O)O)C2C(O)=C1c1c(C)cc2c(C(C)C)c(O)c(O)c(C=N[C@@H](C)C(=O)O)c2c1O.[Na+].[Na+] ; strain: NL4-3 ; read by: luciferase / reporter gene ; result: 0.16 µM
CCCCCOC(=O)C[C@H](NP(=O)(CO[C@@H](CF)COc1nccc(N)n1)Oc1ccccc1)C(=O)OCCCCC ; strain: BaL ; read by: luminescence ; result: 5.52 µM
[Cl][Cu][Cl].c1c2c3nc4c1CCC[C@@H]4NCCNCCNCCN[C@H]3CCC2 ; strain: NL4-3 ; read by: luminescence ; result: 0.4 µM
Fc1ccc(/C=C/c2cc(Cl)c3ccccc3n2)c(F)c1 ; strain: UG070 ; read by: luminescence ; result: >166 µM
CCOC(=O)C(O)(c1c[nH]c2ccc(Br)cc12)C(F)(F)F ; strain: IIIB ; result: 0.093 µM